A mixed list of measured activities; the numbers were collected in NIAID ChemDB.

Common to all: whole-cell or culture tests; species: Rhinovirus; method: cytopathic effect; measure: EC50

ECn is the concentration giving n% inhibition of infection, replication or growth. Rows are shuffled and stem from different studies. An empty or dashed field is not shown.

compound | strain | cells | value
Cc1nc(-c2cc(C)c(OCCCc3cc(C(F)(F)F)no3)c(C)c2)no1 | Serotype 15 | HeLa | 0.232 µg/mL
CC(=O)Nc1nc2c(CC(O)CO)nc(C)n2c(=O)[nH]1 | TYPE 1A | WI-38 | >400 µg/mL
Clc1ccc(C2=Cc3cc(Cl)ccc3OC2)cc1 | Serotype 1B | M-HELA | 1.45 µM
CS(=O)(=O)c1ccc(Cc2ccc(Br)cc2)nc1 | TYPE 2 | HeLa | 2.5 µg/mL
Clc1ccc2c(c1)C=C(c1ccccc1)CO2 | Serotype 1B | M-HELA | 3.3 µM
O=C(CCCCOc1c(Cl)cc(C2=NCCO2)cc1Cl)c1ccc(Cl)cc1 | Serotype 2 | HeLa | >35 µM
COc1ccc(-c2snc(SC)c2C#N)cc1 | Serotype 9 (group B) | HELA-OHIO | >12 µM
CCOc1noc2cc(OCCCCCc3cc(C)no3)ccc12 | Serotype 2 | MRC-5 | 0.035 µg/mL
CSc1nsc(-c2ccc(OCCCOc3ccc(C#N)cc3)cc2)c1C#N | Serotype 70 (group A) | HELA-OHIO | >2 µM
N#Cc1ccc(OCCCCC(=O)c2ccc(F)cc2)cc1 | Serotype 2 | HeLa | >35 µM
Cc1c(-c2ccccc2)n(-c2ccc(F)cc2)c2ccc(C(C)C)cc2c1=O | 16/11757 | HELA-OHIO | 0.033 µg/mL
CS(=O)(=O)c1ccc(Cc2ccc(Cl)c(Cl)c2)nc1 | TYPE 10 | HeLa | 2.5 µg/mL
Cc1ccc(C(=O)CCCCCCOc2ccc(C3=NCC(C)O3)cc2)s1 | TYPE 14 | HeLa | 1.55 µM
Cc1ccc(CCCCCOc2ccc(-c3noc(C(F)F)n3)c(C)c2)nn1 | serotypes 3 4 5 9 16 18 38 66 75 67 | HeLa | 0.23 µg/mL
Cc1nc(CC(O)CO)c2nc[nH]c(=O)n12 | TYPE 9 | WI-38 | ≥300 µg/mL
Cc1ccc(C(=O)CCCCCCOc2ccc(C3=N[C@H](C)CO3)cc2)s1 | TYPE 14 | HeLa | 1.55 µM
CCOC(=O)c1ccc(OCCC2CCN(c3ccc(C)nn3)CC2)cc1 | Serotype 15 (group B) | HELA-OHIO | 0.09 µM
CC(=O)c1ccc(CCCOc2c(C)cc(-c3noc(C(F)F)n3)cc2C)nn1 | serotypes 3 4 5 9 16 18 38 66 75 67 | HeLa | 0.07 µg/mL
Cc1nc(-c2cc(C)c(OCCCc3cc(C4CC4)no3)c(C)c2)no1 | Serotype 21 | HeLa | 0.009 µg/mL
Cc1ccc(C(=O)CCCCCCOc2ccc(C3=N[C@@H](C)CO3)cc2)s1 | TYPE 2 | HeLa | 1.03 µM
CCOc1cnnc2cc(OCCC3CCN(c4ccc(C)nn4)CC3)ccc12 | Serotype 2 | MRC-5 | 0.19 µg/mL
CS(=O)(=O)c1ccc(Oc2ccc(Cl)c(Cl)c2)nc1 | TYPE 64 |  | 0.94 µM
CC(=O)c1cc(CCCOc2c(C)cc(-c3noc(C)n3)cc2C)co1 | 15 serotype mixtures | HeLa | <0.3 µM
N#Cc1ccc(C2CCc3ccccc3O2)cc1 | TYPE 1B | HeLa | 40 µM
Cc1ccc(C(=O)CCCCCCOc2ccc(C3=NCCO3)cc2Cl)s1 | TYPE 2 | HeLa | 0.47 µM
CSc1nsc(-c2ccc(OCc3ccccc3)cc2)c1C#N | Serotype 14 (group A) | HELA-OHIO | 25 µM
Clc1ccc(C2CCc3cc(C4=NCCO4)ccc3O2)cc1 | TYPE 1B | HeLa | 0.36 µM
Cc1ccc(C(=O)CCCCOc2ccc(C3=NCCO3)cc2)cc1C | Serotype 2 | HeLa | >285 µM
Cc1c(-c2ccccc2)n(-c2cccc(F)c2)c2ccc(C(C)C)cc2c1=O | 39/209 | HELA-OHIO | 0.012 µg/mL
CCOC(=O)c1ccc(OCCC2CCN(c3ccc(C)nn3)CC2)cc1 | Serotype 5 | WI-38 | <0.1 µg/mL
CSc1nsc(-c2ccc(OCCOc3ccccc3)cc2)c1C#N | Serotype 39 (group B) | HELA-OHIO | >20 µM
N#Cc1ccc(Oc2ccc(Cl)c(Cl)c2)nc1 | TYPE 1A | HeLa | 5 µM
CSc1nsc(-c2ccccc2)c1C#N | Serotype 89 (group B) | HELA-OHIO | >80 µM
CSc1ccc(C(=O)CCCCOc2ccc(C#N)cc2)cc1 | Serotype 2 | HeLa | >307 µM
CCC1COC(c2ccc(OCCCCC(=O)c3ccc(C)s3)cc2)=N1 | TYPE 14 | HeLa | 0.81 µM
CCn1oc2cc(OCCC3CCN(c4ccc(C)nn4)CC3)ccc2c1=O | Serotype 2 | MRC-5 | 0.246 µg/mL
CS(=O)(=O)c1ccc(NCc2ccc(Cl)c(Cl)c2)nc1 | TYPE 4 | HeLa | >10 µg/mL
CCOC(=O)c1ccc(OCCCCC(=O)c2ccc(Cl)c(Cl)c2)cc1 | Serotype 2 | HeLa | >253 µM
Cc1ccc(C(=O)CCCCOc2ccc(C3=NCC(C)O3)cc2Cl)s1 | TYPE 2 | HeLa | 1.48 µM
C=CCc1nc(C)n2c(=O)[nH]cnc12 | TYPE 9 | WI-38 | ≥200 µg/mL
Nc1ccn([C@@H]2C[C@H](CO)[C@@H](O)[C@H]2O)c(=O)n1 | TYPE 1A | WI-38 | >100 µg/mL
CCOc1cc(CCCOc2c(C)cc(-c3noc(C)n3)cc2C)on1 | Serotype 22 | HeLa | 0.018 µg/mL
COC(=O)C(Cc1ccc(OCCCCC(=O)c2ccc(C)s2)cc1)NC(C)=O | TYPE 2 | HeLa | >86 µM
Cc1cc(OCCCc2ccc(Cl)nn2)cc(C)c1-c1noc(C(F)F)n1 | serotypes 3 4 5 9 16 18 38 66 75 67 | HeLa | 0.02 µg/mL
CSc1nsc(-c2ccc(O)cc2)c1C#N | Serotype 85 (group B) | HELA-OHIO | >10 µM
CCCn1oc2cc(OCCC3CCN(c4ccc(C)nn4)CC3)ccc2c1=O | Serotype 14 | MRC-5 | 0.237 µg/mL
Clc1ccc(C2=CCc3cc(Br)cnc3O2)cc1Cl | TYPE 9 | HeLa | >14 µM
c1ccc(C2COc3ccccc3C2)cc1 | Serotype 1B | M-HELA | 1.43 µM
CCOC(=O)c1ccc(OCCCCC(=O)c2ccc(C)c(C)c2)cc1 | Serotype 14 | HeLa | 10 µM
c1ccc(C2CCc3cc(C4=NCCO4)ccc3O2)cc1 | TYPE 1B | HeLa | 40 µM
CCOC(=O)c1ccc(OCCCCC(=O)c2ccc(F)cc2)cc1 | Serotype 14 | HeLa | 2.1 µM
N#Cc1ccc2c(c1)CCC(c1ccccc1)O2 | TYPE 1B | HeLa | 8 µM
CCn1c2c(c(=O)c3cc(C(C)C)ccc31)C(=NOC)c1ccccc1-2 | TYPE 1A/E28 | HELA-OHIO | >10 µg/mL
CCN(CC)c1cc(-c2ccc(OC)cc2OC)on1 | Serotype 85 (group B) | HeLa | 42.6 µM
CS(=O)(=O)c1ccc(NCc2ccc(Br)cc2)nc1 | TYPE 1A | HeLa | >10 µg/mL
CC(=O)c1ccc(CCCOc2c(C)cc(-c3noc(C)n3)cc2C)o1 | Serotype 14 | HeLa | 0.5 µM
N#Cc1cc([N+](=O)[O-])ccc1Oc1ccc(Cl)c(Cl)c1 | TYPE 8 | HeLa | 0.2 µg/mL
COc1nc2ccc(OCCC3CCN(c4ccc(C)nn4)CC3)cc2s1 | Serotype 2 | MRC-5 | 0.024 µg/mL
CSc1nsc(-c2ccc(OCCCOc3ccccc3)cc2)c1C#N | Serotype 14 (group A) | HELA-OHIO | 10 µM
Clc1ccc(C2COc3ccccc3C2)cc1 | Serotype 1B | M-HELA | 1.64 µM
CCc1nc2ccc(OCCC3CCN(c4ccc(C)nn4)CC3)cc2o1 | Serotype 2 | MRC-5 | 0.144 µg/mL
CSc1nsc(-c2ccc(OCCc3ccccc3)cc2)c1C#N | Serotype 85 (group B) | HELA-OHIO | 1.25 µM
CS(=O)(=O)c1ccc(Cc2ccc(Sc3ccccc3)cc2)nc1 | TYPE 1A | HeLa | 0.6 µg/mL
Cc1nc(C(C)C)c2[nH]c(=S)[nH]c(=O)n12 | TYPE 1A | WI-38 | >200 µg/mL
Cc1ccc(C(=O)CCCCOc2ccc(C#N)cc2)cc1 | Serotype 2 | HeLa | >269 µM
CS(=O)(=O)c1ccc(Oc2ccc(C(=O)c3ccccc3)cc2)nc1 | TYPE 10 | HeLa | 10 µg/mL

A second listing of 9 rows from above:

{"compound": "CS(=O)(=O)c1ccc(Cc2ccc(Sc3ccccc3)cc2)nc1", "strain": "TYPE 1A", "cells": "HeLa", "value": "0.6 µg/mL"}
{"compound": "Cc1ccc(C(=O)CCCCOc2ccc(C3=NCCO3)cc2)cc1C", "strain": "Serotype 2", "cells": "HeLa", "value": ">285 µM"}
{"compound": "CSc1nsc(-c2ccc(OCc3ccccc3)cc2)c1C#N", "strain": "Serotype 14 (group A)", "cells": "HELA-OHIO", "value": "25 µM"}
{"compound": "N#Cc1ccc(Oc2ccc(Cl)c(Cl)c2)nc1", "strain": "TYPE 1A", "cells": "HeLa", "value": "5 µM"}
{"compound": "CCOc1noc2cc(OCCCCCc3cc(C)no3)ccc12", "strain": "Serotype 2", "cells": "MRC-5", "value": "0.035 µg/mL"}
{"compound": "Cc1nc(C(C)C)c2[nH]c(=S)[nH]c(=O)n12", "strain": "TYPE 1A", "cells": "WI-38", "value": ">200 µg/mL"}
{"compound": "N#Cc1cc([N+](=O)[O-])ccc1Oc1ccc(Cl)c(Cl)c1", "strain": "TYPE 8", "cells": "HeLa", "value": "0.2 µg/mL"}
{"compound": "CSc1nsc(-c2ccc(OCCOc3ccccc3)cc2)c1C#N", "strain": "Serotype 39 (group B)", "cells": "HELA-OHIO", "value": ">20 µM"}
{"compound": "CSc1ccc(C(=O)CCCCOc2ccc(C#N)cc2)cc1", "strain": "Serotype 2", "cells": "HeLa", "value": ">307 µM"}